Compound potency records, mixed from different reports. Data source: NIAID ChemDB in PubChem.

Common to all: tests in culture; species: Staphylococcus aureus

Conditions beyond the fields shown may differ between rows. Blank or dashed fields: not listed here. MIC50, MIC90 and the like: level of inhibition, or share of isolates inhibited.

SMILES | strain | measure | result
CCCCCCCCCCCC[N+](C)(C)CSCCCCCC | ATCC 6538 | MBC | 131 µM
O=C(NC[C@H]1CN(c2ccc(C3CCS(=O)(=O)CC3)c(F)c2)C(=O)O1)Nc1ccc(Cl)c(Cl)c1 | ATCC 29213 (linezolid-resistant) | MIC | >64 µg/mL
CC(=O)NC[C@H]1CN(c2ccc(C(=O)Nc3ccncc3)c(F)c2)C(=O)O1 | ATCC 29213 (linezolid-resistant) | MIC | >64 µg/mL
C[C@H]1NCc2cc(-c3ccc4c(=O)c(C(=O)O)cn(C5CC5)c4c3OC(F)F)ccc21 | A15090 (methicillin-susceptible) | MIC | 0.03 µg/mL
CC(=O)NC[C@H]1CN(c2ccc(-c3ccsc3)c(F)c2)C(=O)O1 | UC6685 (methicillin-resistant) | MIC | 0.5 µg/mL
CC(=O)NC[C@H]1CN(c2ccc(N(C)S(C)(=O)=O)c(F)c2)C(=O)O1 | ATCC 29213 (linezolid-resistant) | MIC | >64 µg/mL
CC(=O)NC[C@H]1CN(c2ccc(-c3cc(C#N)cs3)c(F)c2)C(=O)O1 | UC6685 (methicillin-resistant) | MIC | ≤0.5 µg/mL
CC(=O)NC[C@H]1CN(c2ccc(C(=O)Nc3nncs3)c(F)c2)C(=O)O1 | ATCC 29213 (linezolid-resistant) | MIC | >64 µg/mL
CC(=O)NC[C@H]1CN(c2ccc(-c3cnn(Cc4ccccc4)c3)c(F)c2)C(=O)O1 | UC9213 (methicillin-susceptible) | MIC | 8 µg/mL
Nc1nc(-n2cc(C(=O)O)c(=O)c3cc(F)c(N4CCNCC4)c(F)c32)c(F)cc1F | 209P | MIC | 0.1 µg/mL
CC(=O)NC[C@H]1CN(c2ccc(N(C)C=O)c(F)c2)C(=O)O1 | ATCC 29213 (linezolid-resistant) | MIC | >64 µg/mL
COc1c(CN(C)C)cccc1C1OC(c2ccncc2)=NN1C(C)=Nc1ccc(F)cc1 | MTCC96 | MIC | 6.25 µg/mL
CC(=O)NC[C@H]1CN(c2ccc(Sc3sccc3[N+](=O)[O-])c(F)c2)C(=O)O1 | ATCC 29213 (linezolid-resistant) | MIC | >64 µg/mL
CC(=O)NC[C@H]1CN(c2ccc(C(=O)Nc3nc4ccccc4s3)c(F)c2)C(=O)O1 | ATCC 29213 (linezolid-resistant) | MIC | >64 µg/mL
CSc1ccc(C(=O)Nc2ccc(N3C[C@H](CNC(C)=O)OC3=O)cc2F)o1 | ATCC 29213 (linezolid-resistant) | MIC | >64 µg/mL
CC(=O)NC[C@H]1CN(c2ccc(SCc3ncon3)c(F)c2)C(=O)O1 | ATCC 29213 (linezolid-resistant) | MIC | >64 µg/mL
Clc1ccc2c(c1)C1OCCCC1C(c1c[nH]c3ccc(Br)cc13)N2 | Methicillin-resistant | MIC | <0.39 µg/mL
CNC(=O)CC1NC(=O)c2csc(n2)-c2ccc(-c3nc(C(=O)NCCC(=O)O)cs3)nc2-c2csc(n2)-c2csc(n2)C(C(O)c2ccccc2)NC(=O)CNC(=O)c2nc(sc2CSc2nc3cccnc3s2)C(C(C)C)NC(=O)c2nc1sc2C | ATCC 33591 (methicillin-resistant) | MIC | 0.5 µg/mL
CCc1cc(Nc2cc(=O)n(CCCO)c(=O)[nH]2)ccc1C | - | MIC | 8 µg/mL
CC(=O)NC[C@H]1CN(c2ccc(-c3ccn[nH]3)c(F)c2)C(=O)O1 | UC9213 (methicillin-susceptible) | MIC | 4 µg/mL
CC[C@H]1OC(=O)[C@H](C)[C@@H](O[C@H]2C[C@@](C)(OC)[C@@H](O)[C@H](C)O2)[C@H](C)[C@@H](O[C@H]2O[C@@H](C)C[C@@H](N(C)C)[C@@H]2O)[C@](C)(O)C[C@@H](C)C(=O)[C@H](C)[C@@H](O)[C@]1(C)O | 33591 (erythromycin-resistant) | MIC | >64 µg/mL
CC[C@H]1OC(=O)[C@H](C)C(=O)[C@H](C)[C@@H](O[C@@H]2O[C@H](C)C[C@H](N(C)C)[C@H]2O)[C@@]2(C)C[C@@H](C)C(=O)[C@H](C)C(OC/C=C/CO2)[C@]1(C)O | 29213 (erythromycin-susceptible) | MIC | 2 µg/mL
Nc1nc(-n2cc(C(=O)O)c(=O)c3cc(F)c(N4CC(N)C4)c(F)c32)c(F)cc1F | 209P | MIC | 0.025 µg/mL
CNC(=O)CC1NC(=O)c2csc(n2)-c2ccc(-c3nc(C4=NC(C(=O)N5CCCC5C(N)=O)CO4)cs3)nc2-c2csc(n2)-c2csc(n2)C(C(O)c2ccccc2)NC(=O)CNC(=O)c2nc(sc2CO)C(C(C)C)NC(=O)c2nc1sc2C | ATCC 33591 (methicillin-resistant) | MIC | 0.125 µg/mL
COc1c(N2C[C@@H]3CCCN[C@@H]3C2)c(F)cc2c(=O)c(C(=O)O)cn(C3CC3)c12 | 224 isolates (methicillin-resistant) | MIC90 | 3.73 µg/mL
Nc1nc(-n2cc(C(=O)O)c(=O)c3cc(F)c(N4CC(O)C4)cc32)c(F)cc1F | 209P | MIC | 0.05 µg/mL
CNC(=O)CC1NC(=O)c2nc(sc2COC)C(C(C)C)NC(=O)c2csc(n2)-c2ccc(-c3nc(C4=NC(C(=O)N5CCCC5C(N)=O)CO4)cs3)nc2-c2csc(n2)-c2csc(n2)C(C(O)c2ccccc2)NC(=O)CNC(=O)c2nc1sc2C | ATCC 29213 (linezolid-resistant) | MIC | 64 µg/mL
O=C(c1ccno1)N1CCC(Cn2c(=O)cc(Nc3ccc4c(c3)CCC4)[nH]c2=O)CC1 | - | MIC | 8 µg/mL
CC(=O)NC[C@H]1CN(c2ccc(-c3cc(CO)on3)c(F)c2)C(=O)O1 | UC9213 (methicillin-susceptible) | MIC | 2 µg/mL
CNC(=O)CC1NC(=O)c2csc(n2)-c2ccc(-c3nc(C(=O)NCCC(=O)O)cs3)nc2-c2csc(n2)-c2csc(n2)C(C(O)c2ccccc2)NC(=O)CNC(=O)c2nc(sc2CO)C(C(C)C)NC(=O)c2nc1sc2C | ATCC 33591 (methicillin-resistant) | MIC | 1 µg/mL
CC(=O)NC[C@H]1CN(c2ccc(NS(C)(=O)=O)c(F)c2)C(=O)O1 | ATCC 29213 (linezolid-resistant) | MIC | >64 µg/mL
CC(=O)NC[C@H]1CN(c2ccc(C(=O)Nc3ccccn3)c(F)c2)C(=O)O1 | ATCC 29213 (linezolid-resistant) | MIC | >64 µg/mL
CC(=O)NC[C@H]1CN(c2ccc(NC(=O)c3ccc(/C=C/[N+](=O)[O-])o3)c(F)c2)C(=O)O1 | ATCC 29213 (linezolid-resistant) | MIC | >64 µg/mL
CSc1ccc(NC(=O)c2ccc(N3C[C@H](CNC(C)=O)OC3=O)cc2F)cn1 | ATCC 29213 (linezolid-resistant) | MIC | >64 µg/mL
Nc1nc(-n2cc(C(=O)O)c(=O)c3cc(F)c(N4CC(N)C4)c(Cl)c32)c(F)cc1F | 209P | MIC | <0.013 µg/mL
CCN(CC)CCSc1ccc(N2C[C@H](CNC(C)=O)OC2=O)cc1F | ATCC 29213 (linezolid-resistant) | MIC | >64 µg/mL
CC(=O)NC[C@H]1CN(c2ccc(-c3cncs3)c(F)c2)C(=O)O1 | UC6685 (methicillin-resistant) | MIC | 0.5 µg/mL
CCCCCCCCCCCC[N+](C)(C)COC(CCC)CCC | ATCC33592 | MIC | 6.61 µM
CC(=O)NC[C@H]1CN(c2ccc(C(=O)Nc3cccnc3)c(F)c2)C(=O)O1 | ATCC 29213 (linezolid-resistant) | MIC | >64 µg/mL
Nc1nc(-n2cc(C(=O)O)c(=O)c3cc(F)c(N4CC(N)C4)cc32)c(F)cc1F | 209P | MIC | 0.1 µg/mL
Clc1ccc2nc(-c3c[nH]c4ccc(Br)cc34)ccc2c1 | Methicillin-resistant | MIC | 0.6 µg/mL
CCCCCCCC[N+](C)(C)COC1CCCCCCCCCCC1 | ATCC 6538 | MIC | 2.56 µM
CNC(=O)CC1NC(=O)c2csc(n2)-c2ccc(-c3nc(C(=O)NCCC(=O)O)cs3)nc2-c2csc(n2)-c2csc(n2)C(C(O)c2ccccc2)NC(=O)CNC(=O)c2nc(sc2CSc2ncccn2)C(C(C)C)NC(=O)c2nc1sc2C | ATCC 33591 (methicillin-resistant) | MIC | 0.125 µg/mL
CC(=O)NC[C@H]1CN(c2ccc(-c3ccn(C(C)=O)n3)c(F)c2)C(=O)O1 | UC9213 (methicillin-susceptible) | MIC | 4 µg/mL
CC(=O)NC[C@H]1CN(c2ccc(SCCO)c(F)c2)C(=O)O1 | ATCC 29213 (linezolid-resistant) | MIC | >64 µg/mL
CCCCCCCCCCCC[N+](C)(C)COCC(CC)CCC | ATCC 6538 | MIC | 12.8 µM
CC(=O)NC[C@H]1CN(c2ccc(-c3noc(C)n3)c(F)c2)C(=O)O1 | UC6685 (methicillin-resistant) | MIC | 8 µg/mL

Repeating the first 4 entries:

SMILES	strain	measure	result
CCCCCCCCCCCC[N+](C)(C)CSCCCCCC	ATCC 6538	MBC	131 µM
O=C(NC[C@H]1CN(c2ccc(C3CCS(=O)(=O)CC3)c(F)c2)C(=O)O1)Nc1ccc(Cl)c(Cl)c1	ATCC 29213 (linezolid-resistant)	MIC	>64 µg/mL
CC(=O)NC[C@H]1CN(c2ccc(C(=O)Nc3ccncc3)c(F)c2)C(=O)O1	ATCC 29213 (linezolid-resistant)	MIC	>64 µg/mL
C[C@H]1NCc2cc(-c3ccc4c(=O)c(C(=O)O)cn(C5CC5)c4c3OC(F)F)ccc21	A15090 (methicillin-susceptible)	MIC	0.03 µg/mL